The results in this text go back to publication PMC4948679.

This experiment addresses superhumanized Ab2/3H6 variant with the single backmutation T98R (BM07). The experiment in a line: BLI; ForteBio Octet QK; protein A biosensors, Ab2/3H6 variants captured from crude concentrated culture supernatants (1200 s), blocked with 100 µg/ml purified su3H6 (1200 s); purified 2F5 at 100 µg/ml in solution, association 600 s, dissociation 1200 s; kinetics buffer. (In general: In BLI a coated tip is dipped into the sample, and binding shifts an interference pattern.)

The substance “broadly neutralizing anti-HIV-1 antibody 2F5” displayed a response level of 1.4 nm.
